Measured values as given in patent US11613546B2, “Substituted pyridotriazine compounds and uses thereof” (Gilead Sciences, Inc., priority 2021, dated 2023).

Test system: pLai RLuc reporter virus
Assay: HIV MT-4 serum shift antiviral reporter assay
Type: cell-based
Details: EC50 (HS/CCM)/EC50 (CCM) fold shift, measure of protein binding
Procedure: To quantify the amount of protein binding to human serum, compounds were serially diluted (1:3) in DMSO and acoustically transferred onto 384-well assay plates via a Labcyte ECHO robot. Each plate contained up to 8 test compounds, including negative and positive controls, (DMSO, 5 μM AZT respectively). Assay plates were prepared in duplicate, and tested in either CCM (cell culture media) or HS/CCM (human serum/cell culture media). MT-4 cells were first pre-infected with pLai RLuc reporter virus for 2 h at 37° C., then further diluted in either CCM (RPMI media, 10% FBS, 1% P/S) or HS/CCM (RPMI media, 10% FBS, 50% HS, 1% P/S), and subsequently added to each plate using a Biotek Micro Flow dispenser. After a 72-h incubation in a humidified and temperature controlled incubator (37° C.), Renilla Glo (Promega) was added to all assay plates and chemiluminescence read using an Envision plate-reader. EC50 values were defined as the compound concentration that causes a 50% decrease in luminescence signal, and were calculated using a sigmoidal dose-response model to generate curve fits. To determine the amount of protein binding, EC50 fold shifts (or EC50 shifts) were calculated by dividing EC50 (HS/CCM)/EC50 (CCM).

Row | Compound | RLUC Shift
1 | C[C@H]1C/C=C\CN2CN1n1cc(C(=O)NCc3ccc(F)cc3F)c(=O)c(O)c1C2=O [Example C43, (1R,2S,Z)—N-(2,4-difluorobenzyl)-9-hydroxy-2-methyl-8,10-dioxo-3,6,8,10-tetrahydro-2H-1,7-methanopyrido[1,2-b][1,2,5]triazecine-11-carboxamide] | 324
2 | C[C@H]1C=CC(C)(C)N2CN1n1cc(C(=O)NCc3ccc(F)cc3F)c(=O)c(O)c1C2=O [Example C91, (1R,2S)—N-(2,4-difluorobenzyl)-8-hydroxy-2,5,5-trimethyl-7,9-dioxo-2,5,7,9-tetrahydro-1,6-methanopyrido[1,2-b][1,2,5]triazonine-10-carboxamide] | 291
3 | CC[C@@H]1C=C[C@H](C)N2CN1n1cc(C(=O)NCc3c(F)cc(F)cc3F)c(=O)c(O)c1C2=O [Example C72, (1S,2R,5S)-2-ethyl-8-hydroxy-5-methyl-7,9-dioxo-N-(2,4,6-trifluorobenzyl)-2,5,7,9-tetrahydro-1,6-methanopyrido[1,2-b][1,2,5]triazonine-10-carboxamide] | 772
4 | CO[C@@H]1[C@H](OC)[C@@H](C)N2CN(C(=O)c3c(O)c(=O)c(C(=O)NCc4c(F)cc(F)cc4F)cn32)[C@H]1C [Example C32, (1S,2R,3R,4S,5S)-8-hydroxy-3,4-dimethoxy-2,5-dimethyl-7,9-dioxo-N-(2,4,6-trifluorobenzyl)-2,3,4,5,7,9-hexahydro-1,6-methanopyrido[1,2-b][1,2,5]triazonine-10-carboxamide] | 1.9
5 | O=C(NCc1c(F)cc(F)cc1F)c1cn2c(c(O)c1=O)C(=O)N1Cc3ccc(F)cc3CN2C1 [Example C2, (6R)-9-fluoro-1-hydroxy-2,14-dioxo-N-(2,4,6-trifluorobenzyl)-2,7,12,14-tetrahydro-6,13-methanobenzo[g]pyrido[1,2-b][1,2,5]triazonine-3-carboxamide] | 17
6 | C[C@@H]1CC[C@H](CF)N2CN1n1cc(C(=O)NCc3c(F)cc(F)cc3F)c(=O)c(O)c1C2=O [Example C51, (1S,2R,5R)-5-(fluoromethyl)-8-hydroxy-2-methyl-7,9-dioxo-N-(2,4,6-trifluorobenzyl)-2,3,4,5,7,9-hexahydro-1,6-methanopyrido[1,2-b][1,2,5]triazonine-10-carboxamide] | 180
7 | C[C@@H]1CCC[C@H](C)N2CN1n1cc(C(=O)NCc3c(F)cc(F)cc3F)c(=O)c(O)c1C2=O [Example C8, (1S,2R,6S)-9-hydroxy-2,6-dimethyl-8,10-dioxo-N-(2,4,6-trifluorobenzyl)-3,4,5,6,8,10-hexahydro-2H-1,7-methanopyrido[1,2-b][1,2,5]triazecine-11-carboxamide] | 30
8 | O=C(NCc1c(F)cc(F)cc1F)c1cn2c(c(O)c1=O)C(=O)N1Cc3cc(F)ccc3CN2C1 [Example C3, (6S)-10-fluoro-1-hydroxy-2,14-dioxo-N-(2,4,6-trifluorobenzyl)-2,7,12,14-tetrahydro-6,13-methanobenzo[g]pyrido[1,2-b][1,2,5]triazonine-3-carboxamide] | 7
9 | C[C@@H]1C/C=C\[C@H](C)N2CN1n1cc(C(=O)NCc3c(F)cc(F)cc3F)c(=O)c(O)c1C2=O [Example C12, (1R,2S,6R,Z)-9-hydroxy-2,6-dimethyl-8,10-dioxo-N-(2,4,6-trifluorobenzyl)-3,6,8,10-tetrahydro-2H-1,7-methanopyrido[1,2-b][1,2,5]triazecine-11-carboxamide] | 356
10 | C[C@H]1C=C[C@H](CF)N2CN1C(=O)c1c(O)c(=O)c(C(=O)NCc3c(F)cc(F)cc3F)cn12 [Example C80, (1R,2R,5S)-2-(fluoromethyl)-8-hydroxy-5-methyl-7,9-dioxo-N-(2,4,6-trifluorobenzyl)-2,5,7,9-tetrahydro-1,6-methanopyrido[1,2-b][1,2,5]triazonine-10-carboxamide] | 652
11 | O=C(NCc1c(F)cc(F)cc1F)c1cn2c(c(O)c1=O)C(=O)N1CCCCN2C1 [Example C109, (1S)-8-hydroxy-7,9-dioxo-N-(2,4,6-trifluorobenzyl)-2,3,4,5,7,9-hexahydro-1,6-methanopyrido[1,2-b][1,2,5]triazonine-10-carboxamide] | 18
12 | C[C@H]1C=C[C@]2(CCOC2)N2CN1C(=O)c1c(O)c(=O)c(C(=O)NCc3c(F)cc(F)cc3F)cn12 [Example C84, (1′S,3S,5′S)-8′-hydroxy-5′-methyl-7′,9′-dioxo-N-(2,4,6-trifluorobenzyl)-4,5,7′,9′-tetrahydro-2H,5′H-spiro[furan-3,2′-[1,6]methanopyrido[1,2-b][1,2,5]triazonine]-10′-carboxamide] | 95
13 | C[C@@H]1C/C=C\CN2CN1n1cc(C(=O)NCc3ccc(F)cc3F)c(=O)c(O)c1C2=O [Example C10, (1R,2R,Z)—N-(2,4-difluorobenzyl)-9-hydroxy-2-methyl-8,10-dioxo-3,6,8,10-tetrahydro-2H-1,7-methanopyrido[1,2-b][1,2,5]triazecine-11-carboxamide] | 854
14 | C[C@H]1C=CCN2CN1C(=O)c1c(O)c(=O)c(C(=O)NCc3c(F)cc(F)cc3F)cn12 [Example C5, (10S)-6-hydroxy-10-methyl-5,8-dioxo-N-[(2,4,6-trifluorophenyl)methyl]-1,2,9-triazatricyclo[7.4.1.02,7]tetradeca-3,6,11-triene-4-carboxamide] | 96
15 | CO[C@H]1C[C@@H](C)N2CN(C[C@H]1OC)C(=O)c1c(O)c(=O)c(C(=O)NCc3ccc(F)cc3F)cn12 [Example C39, (1S,2R,4S,5R)—N-(2,4-difluorobenzyl)-9-hydroxy-4,5-dimethoxy-2-methyl-8,10-dioxo-3,4,5,6,8,10-hexahydro-2H-1,7-methanopyrido[1,2-b][1,2,5]triazecine-11-carboxamide] | 5
16 | C[C@@H]1CCC(C)(C)N2CN1n1cc(C(=O)NCc3ccc(F)cc3F)c(=O)c(O)c1C2=O [Example C93, (1S,2R)—N-(2,4-difluorobenzyl)-8-hydroxy-2,5,5-trimethyl-7,9-dioxo-2,3,4,5,7,9-hexahydro-1,6-methanopyrido[1,2-b][1,2,5]triazonine-10-carboxamide] | 84
